{
  "source": "patent US20190150137A1",
  "molecular_target": "GST-Fg g^1-17D16A (GST fusion of the Fg γ 395-411 sequence with D16A) (human)",
  "assay": "solid-phase assay, immobilised GST fusion, anti-His detection",
  "data": [
    {"binder": "ClfA229-545 (recombinant His-tagged N2N3 segment of Staphylococcus aureus clumping factor A) (protein) GTDITNQLTNVTVGIDSGTTVYPHQAGYVKLNYGFSVPNSAVKGDTFKITVPKELNLNGVTSTAKVPPIMAGDQVLANGVIDSDGNVIYTFTDYVNTKDDVKATLTMPAYIDPENVKKTGNVTLATGIGSTTANKTVLVDYEKYGKFYNLSIKGTIDQIDKTNNTYRQTIYVNPSGDNVIAPVLTGNLKPNTDSNALIDQQNTSIKVYKVDNAADLSESYFVNPENFEDVTNSVNITFPNPNQYKVEFNTPDDQITTPYIVVVNGHIDPNSKGDLALRSTLYGYNSNIIWRSMSWDNEVAFNNGSGSGDGIDKPVVP", "values": [
      {"measurement": "Kd", "result": 35, "unit": "nM"}
    ]}
  ]
}
